Results reported in patent US20260250362A1 (MAPP BIOPHARMACEUTICAL, published 2026).

Molecular target: recombinant ANDV Gn^H/Gc heterodimer (Andes virus (ANDV))
Assay: BLI, koff at pH 5.5

Binder	fold reduction in dissociation at acidic pH against ADI-42898
ADI-65533 (antibody, V domains shown) VH: QVQLVESGGGVVQPGRSLRLSCAASGFTFSSYAMHWVRQAPGKGLEWVAVTWFDVSKKDYADSVKGRFTISRDNSKNTLYLQMNSLRAEDTAVYYCARNLIRYSVSYFPVHGMDVWGQGTTVTVSS VL: DIVMTQSPLSLPVTPGEPASISCRSSQSLLHTYGYNVLDWYLQRPGQSPQLLISLGSYRASGVPDRFSGSGSGTDFTLKISRVEAEDVGVYYCMQALHPFTFGGGTKVEIK	~10 fold
ADI-65534 (antibody, V domains shown) VH: QVQLVESGGGVVQPGRSLRLSCAASGFEFSSYAMHWVRQAPGKGLEWVAVTWFDVSKKDYADSVKGRFTISRDNSKNTLYLQMNSLRAEDTAVYYCARNLIRYSVSYFPVHGMDVWGQGTTVTVSS VL: DIVMTQSPLSLPVTPGEPASISCRSSQSLLHTYGYNVLDWYLQRPGQSPQLLISLGSYRASGVPDRFSGSGSGTDFTLKISRVEAEDVGVYYCMQALHPFTFGGGTKVEIK	~10 fold
